Here are results for six molecules from PubChem BioAssay (NCATS).

The list shows a part of the results, in another mix than the full data. For part of these data: Potency and affinity values are given separately. Active and inactive are the calls of the source.

For test [1] the following is noted: Ebola virus entry assay, green fluorescence channel.
The conditions of test [2]: Ebola virus entry assay, green fluorescence channel. This is another data set of the same source.
For test [3] the following is noted: Ebola virus entry assay, ratio channel readout.
The conditions of test [4]: Ebola virus entry assay, green channel fluorescence.
For test [5] the following is noted: Ebola virus entry assay, blue channel fluorescence.
For test [6] the following is noted: Ebola virus entry reporter assay, green channel fluorescence. (In general: Reporter assays use an easily measured gene product as a stand-in for the process of interest.)
The conditions of test [7]: Ebola virus entry cell assay, ratio channel.
For test [8] the following is noted: Ebola virus entry assay, blue channel fluorescence. The source holds these as a separate data set.
The conditions of test [9]: Ebola virus entry assay, reporter ratio channel; Channel type: primary.
The conditions of test [10]: Ebola virus entry assay, blue channel (ratio component).
The conditions of test [11]: Ebola virus entry assay, ratio channel.
Wherever efficacy is given: 0% is about no effect.

In the case of `O=C(O)c1ccccc1O`, in test [1], the efficacy is inactive: -10.2%. In addition, the outcome in [2], in test [3], in test [4], in test [5], in test [6] and in test [7] was inactive.
Take `CC(Cc1ccc(O)cc1)NCC(O)c1cc(O)cc(O)c1` (stereo unspecified): the efficacy in test [1] is inactive: 34.5%. In addition, the molecule was called inactive in test [8], in test [4], in test [9] and in test [10].
On to `COc1ccccc1OCCNCC(O)COc1cccc2[nH]c3ccccc3c12` (stereo unspecified), for which the molecule was called inactive in test [2] and in test [6].
On to `CCCCc1oc2ccccc2c1C(=O)c1cc(I)c(OCCN(CC)CC)c(I)c1`, for which the AC50 in [3] and in test [7] was active: 6.31 µM in each case.
Consider `Cc1ncc([N+](=O)[O-])n1CCO`, for which the result in test [8], in test [5] and in test [10] was inactive.
Turning to `CNCCCCOc1ccccc1Cc1ccccc1`, the concentration at half-maximal activity (AC50) in [11] and in test [9] was active: 3.16 µM throughout.

The AC50 is the concentration at which the activity in the assay is half-maximal.
